Reference: paper PMC9757750

Tested on: Nc1nc2c(ncn2[C@@H]2O[C@H](COP(=O)(O)OP(=O)(O)OP(=O)(O)O)[C@@H](O)[C@H]2O)c(=O)[nH]1
Experiment: purified protein
Settings: pH 7.5; 35.0 °C

## LegA15 (Legionella pneumophila subsp. pneumophila str. Philadelphia 1)
  Km: 7.13 ± 1.77 µM
